Reference: the supplement of paper PMC9931576
Human monoclonal antibodies against the spike receptor-binding domain (heavy:light variable regions). IC50 against pseudoviruses bearing the spike of naturally observed variants; lower = stronger; >10 µg/ml means not reached at the top dose. No active / inactive call. The stated detection limit is 0.0005 µg/ml; values near or below 0.001 µg/ml lie at the floor of the assay.

B1: BD55-1242 (protein)
chain 1: EVQLVESGGGLVQPGGSVKLSCAASGFTFSSDDMHWVRQVTGKSLEWVSGTGTSGDTYYLDSVKGRFTISRENAKNSVYLQMNNLGAGDTAVYFCVRGRSSGLYYYFDFWGQGTLVTVSS
chain 2: DIQMTQSPSSLSASVGDRVTITCRASQTISRYLNWYQQKPGKAPKLLIYAASNLQSGVPSRFSGSGSGTDFTLSISSLQPEDFATYYCQQSYSSPPWTFGPGTKVEIK
B2: BD55-6441 (protein)
chain 1: QVQLVQSGAEVKKPGGSMKVSCKTSGYPFTDYYMHWVRQAPGQGLEWMGWINPKSGDTSYAHDFQDRVTMSRDTSINTVYMEVNSLRSDDTAVYYCARDGGGGGWNDFNWFDSWGQGTLVAVSS
chain 2: AIRMTQSPSSFSAFTGDRVTITCRASQDIGSYLAWYQQKPGKAPKVLIYAASTLYSGVPSRFSGSGSGTEFSLTISRLQSEDFATYYCQQYYSYPYTFGQGTKLELK
B3: BD55-6442 (protein)
chain 1: QVQLVQSGAEVKKPGASVKVSCKASGYTFTSHDINWVRQATGQGLEWMGWMNPISGDTGYAQKFQGRVMMTRDTSISTAYMELSSLRSDDTAVYYCARGYPYYDMLTGVSHYYYGLDVWGQGTTVTVSS
chain 2: DIQMTQSPSSLSASVGDRVTITCRASQGISNSLAWFQQKPGKAPKSLIYGASSLQSGVPSKFSGSGSGTDFTLTISSLQPEDFATYYCQQYNSYPLTFGGGTKVEIK
B4: BD55-6444 (protein)
chain 1: QVQLVQSGAEVKKPGASVKVSCKASGYTFIRFHMHWVRQAPGQGLEWMGRINPSDGSTSYAQTFQGRVTMTRDTSATTVYMEVRSLRSEDTAVYFCARDAEIQLWPNVVDSWGQGTLVTVSS
chain 2: DIQMTQSPSSLSASVGDRVTITCRASQSISYYVHWYQHKPGKAPKLLIYAASNLQSGVPSRFSGSGSGTDFTLTISSLQPEDFATYFCQQTYTTLLTFGGGTKVEIK
B5: BD55-1244 (protein)
chain 1: QVQLVESGGGVVQPGKSLRLSCTASGFTFSTYAMHWVRQVPGKGLEWVAVILYDGSLKLYSDSVKGRFTISRDNSKNTLFLEMNNLRAEDTAVYYCARDQGEMTTHFDLWGLGTLVTVSS
chain 2: DIQMTQSPSSLPASVGDRITITCRASQSIAKFLNWYQQKPGKAPQLLIYDASTLQSGVPSRFSGSGSGTDFTLTVSSLQPEDFATYYCQQSYNTPPWTFGQGTRVEIK
B6: BD55-6448 (protein)
chain 1: EVQLLESGGGLVQPGGSLRLSCAASGFPFDNYAMTWVRQAPGKGLEWVSSISGSGDVTYFIDSLKGRFTISRDNSENTLYLQMTGLRAEDTAVYYCAKDHLRRVYYYDTSGFDYWGHGTLVTVSS
chain 2: QSVLTQPPSVSGAPGQRVTISCTGSSSNIGSYYDVHWYQHLPGTAPKLLIFGTVNRPSGVPDRFSGSKSGTSASLTITGLQAEDEADYYCQSFDSSLTLLFGGGTRLTVL
B7: BD55-6452 (protein)
chain 1: VQLVQSGADVKEPGASVKVSCKTSGYAFSTYDIVWVRQVTGQRLEWMGWMNPKSGDTGYAHKFQGRVTMTRDTSTSTAYLELSSLTSEDTAIYYCAREEDGVVRGFRRFDPWGQGTLVTVSS
chain 2: DIQLTQSPSSLSASVGDRVTITCRASQNINNNLNWYQQKPGNAPKLLIYTTSSLQSGVPSRFSGGGSGTDFTLTINSLQPGDFATYYCQQSYSTSYSFGQGTRLEIK
B8: BD55-6459 (protein)
chain 1: EVQLVESGGGLVKPGGTLTLACAASGFSFNTNGMNWVRQAPGKGLEWVASISSSRSFIFYADSVKGRFIISRDNSKNSLYLHMSSLRVEDTAVYYCTREWDHYDTRLDWGQGTLVTVSS
chain 2: QSVLTQPPSVSGTPGQRVTISCTGSSSNIGAGFAVHWYQQLPGTAPQLLFSHTDRPSGVPDRISGSRSGTSASLAITGLQAEDEADYYCQSFDSSLSVVVFGGGTKLTVL
B9: BD55-1245 (protein)
chain 1: QVQLVQSGSEFKKPGASVKVACKASGYTFSDYAINWVRQTPGQGLEWLGWINTNTGNPTYAQGFTGHFDFSLDTSLSTAYLQISSLKAEDAAVYYCARVWGAGIRYNYYGLDVWGQGTTVTVSS
chain 2: IVMTQSPLSLPVTLGEPASISCRSSQNLYHRSGYHYLDWYMQKPGQSPQLLIYLGSNRASGVPDRFSGSASGTDFTLTISRVEAEDVGVYYCMQALQTPPEYTFGQGTKLEIK
B10: BD55-6465 (protein)
chain 1: QVQLVQSGAEVKKPGASVKVSCKASGYTFINYDINWVRQATGQGLEWMGWMNPNSGSTGYAHNFQGRVTMTRNTSIATAYMELSSLRSEDTAVYYCARGLPYSHSSGYGASDHWGQGALVTVSS
chain 2: DLQMTQSPSSLSASVGARVTLTCRASQSISTYLNWYQQKPGTAPKLLIYGASSLQSGVPSRFSGSGSGTDFTLTISSLQPEDFATYYCQQSYSTPYSFGQGTKLEIK
B11: BD55-6468 (protein)
chain 1: QVQLVQSGSELKKPGASLKVSCKASGYSFSSYAMHWVRQAPGQGLEWMGWINPNTGIPTYGQAFTGRFVFSLDTSVSTAFLQISSLEAEDTAVYYCARSRSTWPFSDPFDIWGQGTMVTVSS
chain 2: IVMTQSPATLSVSPGERASLSCRAGQSVSNNLAWYQQKPGQAPRLLIFGASTRATGVPARFSGSGSGTDFTLTISSLQSEDFAVYYCQQYNYWPLTFGGGTKVEIK
B12: BD55-6470 (protein)
chain 1: QVQLQESGPGLVRPSETLSLTCSVSGGSISSHYWSWIRQPPGKGLEWIGYIYYSGSTDYNPSLKSRVTISVDTSKKQFSLKLTSVTAADTAVYYCATVPGLPAAGTFYYYYGMDVWGQGTAVTVSS
chain 2: DIQMTQSPSSLSASVGDRVTITCRASQSISDFLNWYQQKPGKAPKLLIYGASSLQSGVPSRFTGSGSGTDFTLTISSLQPEDFATYYCQQSYTLFTFGPGTKVDF

Assays:
Test in all cases: pseudovirus neutralization IC50; higher = weaker neutralization
[1] = target: SARS-CoV-2 Omicron BA.1 spike pseudovirus
Protocol: (§1)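 Single-round VSV luciferase pseudovirus mixed with antibody dilutions for 1 h and put on Huh-7 cells for about a day; IC50 from the dose curve.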

[2] = target: SARS-CoV-2 Omicron BA.2 spike pseudovirus
Protocol: as §1

[3] = target: SARS-CoV-2 Omicron BA.2.75 spike pseudovirus
Protocol: as §1

[4] = target: SARS-CoV-2 Omicron BA.5 spike pseudovirus
Protocol: as §1

[5] = target: SARS-CoV-2 Omicron BQ.1.1 spike pseudovirus
Protocol: as §1

[6] = target: SARS-CoV-2 Omicron XBB spike pseudovirus
Protocol: as §1

[7] = target: SARS-CoV-2 early D614G spike pseudovirus
Protocol: as §1

Row | Binder | pseudovirus neutralization IC50 [1] [µg/mL] | pseudovirus neutralization IC50 [2] [µg/mL] | pseudovirus neutralization IC50 [3] [µg/mL] | pseudovirus neutralization IC50 [4] [µg/mL] | pseudovirus neutralization IC50 [5] [µg/mL] | pseudovirus neutralization IC50 [6] [µg/mL] | pseudovirus neutralization IC50 [7] [µg/mL]
1 | B1 | > 10 | > 10 | > 10 | > 10 | > 10 | > 10 | > 10
2 | B2 | > 10 | > 10 | > 10 | > 10 | > 10 | > 10 | > 10
3 | B3 | > 10 | > 10 | > 10 | > 10 | > 10 | > 10 | > 10
4 | B4 | > 10 | > 10 | > 10 | > 10 | > 10 | > 10 | > 10
5 | B5 | > 10 | > 10 | > 10 | > 10 | > 10 | > 10 | 0.991
6 | B6 | > 10 | > 10 | > 10 | > 10 | > 10 | > 10 | > 10
7 | B7 | > 10 | > 10 | > 10 | > 10 | > 10 | > 10 | > 10
8 | B8 | > 10 | > 10 | > 10 | > 10 | > 10 | > 10 | 0.62
9 | B9 | > 10 | > 10 | > 10 | > 10 | > 10 | > 10 | 0.298
10 | B10 | > 10 | > 10 | > 10 | > 10 | > 10 | > 10 | > 10
11 | B11 | > 10 | > 10 | > 10 | > 10 | > 10 | > 10 | 0.0133
12 | B12 | > 10 | > 10 | > 10 | > 10 | > 10 | > 10 | > 10
